Test results from patent US20080261312A1, “Methods for matrix cleanup and analysis of drugs and metabolites in biological matrices” (priority 2007, published 2008).

Experiment: Quantification of ion-suppression/enhancement (matrix effect), Matuszewski method, post-spiked WAX-aided extracts vs neat solutions, LC-MS/MS

For `NC1=N[C@H](O)[C@H]2[C@H]3O[C@]4(O)O[C@@H]([C@@H](O)[C@@]2(N1)[C@@H]4O)[C@]3(O)CO` [Tetrodotoxin], the “Matrix Effect (%)” value was 97.6%.
